Pooled drug test results. Numbers come from NIAID ChemDB, via PubChem.

All rows: tests in culture; agent: Aspergillus niger; read-out: MIC

An empty or dashed field is not shown.

compound | conditions | read by | strain or isolate | value
N#Cc1c(-c2ccc(F)cc2)cc(-c2cc3cc(F)ccc3oc2=O)nc1NS(=O)(=O)c1ccccc1 |  | turbidity | MTCC 282 | 50 µg/mL
COc1cc(/C=C2/SC(=O)N(CC(=O)Nc3nc4ccc(SC#N)cc4s3)C2=O)cc(OC)c1OC |  | broth dilution / visual reading | MTCC 282 | 1000 µg/mL
O=C(COc1ccc(F)cc1)c1ccccc1 | 72 h | broth dilution | ATCC 16404 | >125 µg/mL
[I][Cd][I].c1ccc(CSc2cccc3cccnc23)nc1 |  | broth dilution / visual reading |  | 101 µM
CC(=O)c1ccc(B(O)O)cc1 |  | turbidity |  | 125 µg/mL
N#Cc1c(-c2ccc(O)cc2)cc(-c2cc3cc(F)ccc3oc2=O)nc1NS(=O)(=O)c1ccccc1 |  | turbidity | MTCC 282 | 50 µg/mL
COc1cc(/C=N/O)ccc1OP1(Oc2ccc(/C=N/OC(=O)c3cccs3)cc2OC)=NP(Oc2ccc(/C=N/O)cc2OC)(Oc2ccc(/C=N/OC(=O)c3cccs3)cc2OC)=NP(Oc2ccc(/C=N/OC(=O)c3cccs3)cc2OC)(Oc2ccc(/C=N/OC(=O)c3cccs3)cc2OC)=N1 |  | agar diffusion / agar |  | 75 µg/mL
C[C@H]1[C@H](O)[C@@H](C)/C=C/C=C/C=C/C=C/C=C/C=C/C=C/[C@H](O[C@@H]2O[C@H](C)[C@@H](O)[C@H](N)[C@@H]2O)C[C@@H]2O[C@](O)(C[C@@H](O)C[C@@H](O)CC[C@H](O)[C@@H](O)C[C@@H](O)CC(=O)O[C@H]1C)C[C@H](O)[C@H]2C(=O)O |  | agar diffusion | As2 | 36 µg/mL
N#CSc1ccc2nc(NC(=O)CN3C(=O)S/C(=C/c4ccccc4)C3=O)sc2c1 |  | broth dilution / visual reading | MTCC 282 | >1000 µg/mL
Cc1ccc(C2CC(Cc3ccc(CC(C)C)cc3)=Cc3[nH][nH]c(=O)c32)cc1 |  | agar diffusion |  | 100 µg/mL
N#CSc1ccc2nc(NC(=O)CN3C(=O)S/C(=C/c4cccc(Br)c4)C3=O)sc2c1 |  | broth dilution / visual reading | MTCC 282 | 1000 µg/mL
N#Cc1c(-c2ccc([N+](=O)[O-])cc2)cc(-c2cc3cc(F)ccc3oc2=O)nc1NS(=O)(=O)c1ccccc1 |  | turbidity | MTCC 282 | 500 µg/mL
Fc1cc(F)c(B2Oc3ccccc3O2)c(F)c1 |  | turbidity |  | 62.5 µg/mL
COc1ccc(OC/C(=N/O)c2ccccc2)cc1 | 72 h | broth dilution | ATCC 16404 | >125 µg/mL
Cc1ccc(C2CC(Cc3ccc4ccccc4c3)=Cc3[nH][nH]c(=O)c32)cc1 |  | agar diffusion |  | 200 µg/mL
COc1cccc(-c2cc(-c3cc4cc(F)ccc4oc3=O)nc(NS(=O)(=O)c3ccccc3)c2C#N)c1 |  | turbidity | MTCC 282 | 500 µg/mL
OB1OC(N2CCCCC2)c2ccccc21 |  | turbidity |  | 31.2 µg/mL
C[C@H]1N(C(=O)c2ccc(C(F)(F)F)cc2)C[C@@H](O)O[C@@]1(Cn1cncn1)c1ccc(F)cc1F |  |  | Isolate 2 | 100 µg/mL
OB(O)c1ccccc1 |  | turbidity |  | 250 µg/mL
COc1ccc(C(=O)O/N=C/c2ccc(OP3(Oc4ccc(/C=N/OC(=O)c5ccc(OC)cc5)cc4OC)=NP(Oc4ccc(/C=N/OC(=O)c5ccc(OC)cc5)cc4OC)(Oc4ccc(/C=N/OC(=O)c5ccc(OC)cc5)cc4OC)=NP(Oc4ccc(/C=N/OC(=O)c5ccc(OC)cc5)cc4OC)(Oc4ccc(/C=N/OC(=O)c5ccc(OC)cc5)cc4OC)=N3)c(OC)c2)cc1 |  | agar diffusion / agar |  | >100 µg/mL
O=c1[nH][nH]c2c1C(c1ccccc1)CC(Cc1ccc3ccccc3c1)=C2 |  | agar diffusion |  | 50 µg/mL
[I][Cd][I].[I][Cd][I].c1cnc2c(SCc3ccncc3)cccc2c1.c1cnc2c(SCc3ccncc3)cccc2c1 |  | broth dilution / visual reading |  | >101 µM
N#Cc1c(-c2ccccc2)cc(-c2cc3cc(F)ccc3oc2=O)nc1NS(=O)(=O)c1ccccc1 |  | turbidity | MTCC 282 | 500 µg/mL
CC(C)Cc1ccc(CC2=Cc3[nH][nH]c(=O)c3C(c3ccc(Br)cc3)C2)cc1 |  | agar diffusion |  | 100 µg/mL
COc1cc(C=O)ccc1OP1(Oc2ccc(C=O)cc2OC)=NP(Oc2ccc(C=O)cc2OC)(Oc2ccc(C=O)cc2OC)=NP(Oc2ccc(C=O)cc2OC)(Oc2ccc(C=O)cc2OC)=N1 |  | agar diffusion / agar |  | >100 µg/mL
COC(=O)/C=C/c1ccccc1 |  | broth dilution / resazurin |  | 500 µg/mL
COc1ccccc1OC/C(=N/O)c1ccccc1 | 48 h | broth dilution | ATCC 16404 | >125 µg/mL
CCN(Cc1ccccc1B(O)O)c1ccccc1 |  | turbidity |  | 250 µg/mL
COc1cc(/C=N/O)ccc1OP1(Oc2ccc(/C=N/OC(=O)c3ccccc3)cc2OC)=NP(Oc2ccc(/C=N/OC(=O)c3ccccc3)cc2OC)(Oc2ccc(/C=N/OC(=O)c3ccccc3)cc2OC)=NP(Oc2ccc(/C=N/OC(=O)c3ccccc3)cc2OC)(Oc2ccc(/C=N/OC(=O)c3ccccc3)cc2OC)=N1 |  | agar diffusion / agar |  | 75 µg/mL
CC1(C)S[C@@H]2[C@H](NC(=O)[C@H](N)c3ccc(O)cc3)C(=O)N2[C@H]1C(=O)O |  | visual reading | MTCC 1349 | 890 µg/mL

Repeating the final 4 entries:

COc1ccccc1OC/C(=N/O)c1ccccc1 ; conditions: 48 h ; read by: broth dilution ; strain or isolate: ATCC 16404 ; value: >125 µg/mL
CCN(Cc1ccccc1B(O)O)c1ccccc1 ; read by: turbidity ; value: 250 µg/mL
COc1cc(/C=N/O)ccc1OP1(Oc2ccc(/C=N/OC(=O)c3ccccc3)cc2OC)=NP(Oc2ccc(/C=N/OC(=O)c3ccccc3)cc2OC)(Oc2ccc(/C=N/OC(=O)c3ccccc3)cc2OC)=NP(Oc2ccc(/C=N/OC(=O)c3ccccc3)cc2OC)(Oc2ccc(/C=N/OC(=O)c3ccccc3)cc2OC)=N1 ; read by: agar diffusion / agar ; value: 75 µg/mL
CC1(C)S[C@@H]2[C@H](NC(=O)[C@H](N)c3ccc(O)cc3)C(=O)N2[C@H]1C(=O)O ; read by: visual reading ; strain or isolate: MTCC 1349 ; value: 890 µg/mL

Neighbouring rows are from separate reports.